Consider one compound from PMC6099617, “Synthesis of Antibacterial Nisin–Peptoid Hybrids Using Click Methodology” (Molecules : A Journal of Synthetic Chemistry and Natural …, 2018).

The experiment has as its system methicillin-resistant Staphylococcus aureus USA 300. Put plainly: MIC determination against methicillin-resistant S. aureus USA300 (broth microdilution, CLSI). The conditions noted are these: MRSA USA300, CAMHB, overnight incubation 35 °C, visual inspection, duplicate. For orientation: Dilution methods test growth across graded concentrations, often in twofold steps.

In brackets after ≈: the same amount, converted by molar mass.

Regarding `C=C1NC(=O)[C@H]([C@@H](C)CC)NC(=O)[C@H](NC(=O)/C(=C/C)NC(=O)[C@@H](N)[C@@H](C)CC)CSC[C@@H](C(=O)N[C@H]2C(=O)N3CCC[C@H]3C(=O)NCC(=O)N[C@H](C(=O)N[C@@H](CCCCN)C(=O)NCCCN=[N+]=[N-])CS[C@H]2C)NC(=O)[C@H](CC(C)C)NC1=O`, the “MIC S. aureus (USA300)” value worked out at 26 µM (≈ 32 µg/mL).
